Compound potency records, mixed from different reports. Data source: NIAID ChemDB in PubChem.

Shared fields: growth or infection tests; organism: Candida albicans; endpoint: MIC80

Rows are shuffled and stem from different studies.

smiles | strain or isolate | value
N/C(=N\O)c1ccc(OCCCCCOc2ccc(/C(N)=N/O)cc2)cc1 | A39 | >100 µg/mL
COc1ccc2c(c1)CCN1C(NCCCCCC=C(C)C)NCCC21 | NFI2103 | 32 µg/mL
Cc1c(Cn2ccnc2)c2ccccc2n1Cc1ccc(Cl)cc1 | CA980001 | 1 µg/mL
C[C@@H](c1ncncc1F)[C@](O)(Cn1cncn1)c1ccc(F)cc1F |  | 0.04 µM
CC(c1cccs1)C(O)(Cn1ccnc1)c1ccc(Cl)cc1Cl |  | 4 µg/mL
Fc1ccccc1Cn1cc(Cn2ccnc2)c2cc(Br)ccc21 | CA980001 | >100 µg/mL
CN(CC(=O)Nc1ccc(F)c(Cl)c1)CC(O)(Cn1cncn1)c1ccc(F)cc1F |  | 1 µg/mL
O=C1S/C(=C\c2ccco2)C(=O)N1CC(O)(Cn1nccn1)c1ccc(F)cc1F | CaCYP51 | 0.15 µg/mL
CCCCN(Cc1cn(Cc2ccccc2Br)nn1)CC(O)(Cn1cncn1)c1ccc(F)cc1F | Y0109 | 0.5 µg/mL
OC(CN1CCCN(CCCOc2ccccc2)C1)(Cn1cncn1)c1ccc(F)cc1F |  | 2.19 µM
Clc1ccc(Cn2cc(Cn3ccnc3)c3ccccc32)c(Cl)c1 | CA980001 | 5 µg/mL
CN(CCCCOc1ccccc1)CC(O)(Cn1cncn1)c1ccc(F)cc1F |  | 0.04 µM
O=C1S/C(=C\c2ccc(F)cc2F)C(=O)N1CC(O)(Cn1nccn1)c1ccc(F)cc1F | CaCYP51 | 1.04 µg/mL
CCCCN(Cc1cn(Cc2ccccc2F)nn1)CC(O)(Cn1cncn1)c1ccc(F)cc1F | Y0109 | 16 µg/mL
N=C(N)c1ccc(OCCCC(O)COc2ccc(C(=N)N)cc2)cc1 | 103.96 | 12.5 µg/mL
C=C(CCCCCNC1NCCC2c3ccc(OC)cc3CCN12)C(C)C | NFI2103 | 8 µg/mL
CN=[N+]([O-])CC[C@H](N)C(=O)O | CY3003 | 83 µg/mL
Cc1c(C(C)n2ccnc2)c2ccccc2n1Cc1ccc(Br)cc1 | CA980001 | >100 µg/mL
Cc1ccc(/C=C2\SC(=O)N(CC(O)(Cn3nccn3)c3ccc(F)cc3F)C2=O)c(C)c1 | CaCYP51 | 0.13 µg/mL
C[C@H]1[C@H](O)[C@@H](C)/C=C/C=C/C=C/C=C/C=C/C=C/C=C/[C@H](O[C@@H]2O[C@H](C)[C@@H](O)[C@H](N)[C@@H]2O)C[C@@H]2O[C@](O)(C[C@@H](O)C[C@@H](O)CC[C@H](O)[C@@H](O)C[C@@H](O)CC(=O)O[C@H]1C)C[C@H](O)[C@H]2C(=O)O | ATCC 90028 (azole-susceptible) | 0.13 µg/mL
N=C(N)c1ccc2nc(CCCc3nc4ccc(C(=N)N)cc4[nH]3)[nH]c2c1 | A39 | >100 µg/mL
O=C1S/C(=C\c2cccnc2)C(=O)N1CC(O)(Cn1nccn1)c1ccc(F)cc1F | CaCYP51 | 0.57 µg/mL
CCCCN(Cc1cn(Cc2cccc(F)c2)nn1)CC(O)(Cn1cncn1)c1ccc(F)cc1F | SC5314 | <0.125 µg/mL
CN(C)CCN(C)C(=O)c1ccc(-c2ccc(-c3ccc(C(=O)N(C)CCN(C)C)cc3)o2)cc1 | A39 | >100 µg/mL
C[C@@H](c1ncncc1F)[C@](O)(Cn1cncn1)c1ccc(F)cc1F | OY-12-99 (FLU-R) | 0.5 µg/mL
N#Cc1ccc(/C=C2\SC(=O)N(CC(O)(Cn3nccn3)c3ccc(F)cc3F)C2=O)cc1 | CaCYP51 | 0.53 µg/mL
OC(CN=C1CCN(CCCCCOc2ccccc2)CC1)(Cn1cncn1)c1ccc(F)cc1F |  | >129 µM
Fc1ccc(Cn2cc(Cn3ccnc3)c3cc(Br)ccc32)cc1 | CA980001 | >100 µg/mL
CN(C)c1ccc(/C=C2\SC(=O)N(CC(O)(Cn3nccn3)c3ccc(F)cc3F)C2=O)cc1 | CaCYP51 | 2.06 µg/mL
CCCCCCCCOc1ccc(-c2ccc(C(=O)NC3CC(NCCN)CNC(=O)[C@@H]4[C@@H](O)[C@@H](C)CN4C(=O)[C@@H](CO)NC(=O)[C@H]([C@H](O)Cc4ccccc4)NC(=O)[C@@H]4C[C@@H](O)CN4C(=O)[C@H]([C@@H](C)O)NC3=O)cc2)cc1 | 444 (fluconazole-susceptible) | 0.05 µg/mL
CCCCN(Cc1cn(Cc2c(Cl)cccc2Cl)nn1)CC(O)(Cn1cncn1)c1ccc(F)cc1F | Y0109 | 8 µg/mL
Clc1ccc(Cn2cc(Cn3ccnc3)c3cc(Br)ccc32)cc1 | CA980001 | >100 µg/mL
CCCCCCCCNC1NCCC2c3ccccc3CCN12 | NFI2103 | 16 µg/mL
OC(CN1CCCN(CCCCCOc2ccccc2)C1)(Cn1cncn1)c1ccc(F)cc1F |  | 2.06 µM
OC(CN1CCN(c2ccc(OCc3ccncc3)cc2)CC1)(Cn1cncn1)c1ccc(F)cc1F | 304055 | 2 µg/mL
N=C(N)c1ccc(OCCCCCCOc2ccc(C(=N)N)cc2)cc1 | A39 | 1.58 µg/mL
CN(CC(=O)Nc1ccccc1[N+](=O)[O-])CC(O)(Cn1cncn1)c1ccc(F)cc1F |  | 4 µg/mL
CC(C)CCCCCCNC1NCCC2c3ccccc3CCN12 | NFI2103 | 4 µg/mL

The last 4 rows once more:

smiles	strain or isolate	value
OC(CN1CCN(c2ccc(OCc3ccncc3)cc2)CC1)(Cn1cncn1)c1ccc(F)cc1F	304055	2 µg/mL
N=C(N)c1ccc(OCCCCCCOc2ccc(C(=N)N)cc2)cc1	A39	1.58 µg/mL
CN(CC(=O)Nc1ccccc1[N+](=O)[O-])CC(O)(Cn1cncn1)c1ccc(F)cc1F		4 µg/mL
CC(C)CCCCCCNC1NCCC2c3ccccc3CCN12	NFI2103	4 µg/mL

MIC50, MIC90 and the like: level of inhibition, or share of isolates inhibited. An empty or dashed field is not shown.